# B1: Paip1 protein without His-tag, purified (natural protein, human, UniProt Q9H074-2 1-400, looked up)
# chain: MSDGFDRAPEQTRPLRAPPSSQDKIPQQNSESAMAKPQVVVAPVLMSKLSVNAPEFYPSGYSSSYTESYEDGCEDYPTLSEYVQDFLNHLTEQPGSFETEIEQFAETLNGCVTTDDALQELVELIYQQATSIPNFSYMGARLCNYLSHHLTISPQSGNFRQLLLQRCRTEYEVKDQAAKGDEVTRKRFHAFVLFLGELYLNLEIKGTNGQVTRADILQVGLRELLNALFSNPMDDNLICAVKLLKLTGSVLEDAWKEKGKMDMEEIIQRIENVVLDANCSRDVKQMLLKLVELRSSNWGRVHATSTYREATPENDPNYFMNEPTFYTSDGVPFTAADPDYQEKYQELLEREDFFPDYEENGTDLSGAGDPYLDDIDDEMDPEIEEAYEKFCLESERKRKQ
# Legend:
# [1] = target: T1, His-PABP, fluorophore-labelled (UniProt P11940 1-636, RED-tris-NTA 2nd Generation fluorophore on the His tag); assay: MST; as the PABP:Paip1 titration, with SUD added at a constant final concentration of 19 μM/tube; details: both partners purified
# [2] = target: T1, His-PABP, fluorophore-labelled; assay: MST; His-PABP labelled with RED-tris-NTA, 50 nM; Paip1 serially diluted from 140 μM; 20 mM HEPES, 150 mM NaCl, 0.05% Tween-20, pH 8.0; 22°C; Monolith NT.115; details: both partners purified
binder,measurement,setting,value
B1,Kd,[1],1.9 µM
same,Kd,[2],~8.4 µM

# Reference: publication PMC8167360, “The SARS‐unique domain (SUD) of SARS‐CoV and SARS‐CoV‐2 interacts with human Paip1 to enhance viral RNA translation” (The EMBO Journal, 2021)
